This is an account of results in paper PMC11251166 (Nature Communications, 2024).

This assay concerns the target ATP. In words: ITC. Particulars: parent: 15.37 ± 4.85.

On to LnaB (recombinant, purified) S261A, for which the equilibrium dissociation constant (Kd) (usually the concentration at which binding is half-saturated) was found to be 14.4 µM. As to LnaB (recombinant, purified) D183A, the Kd came to 16.1 µM. Under LnaB (recombinant, purified) E309A stands 13.2 µM; under LnaB (recombinant, purified) Y196A, 13.8 µM; under LnaB (recombinant, purified) H305A, 16.3 µM.
